A mixed list of measured activities; the numbers were collected in NIAID ChemDB.

Common to all: growth or infection tests; organism: Hepatitis C virus; endpoint: inhibition

Lines come from different laboratories, so protocols vary. An empty or dashed field is not shown. a–b is a range or a potency band. Percent inhibition refers to the dose given; in toxicity tests it is the harm to the cells.

smiles | strain or isolate | cell line | method | setting | dose | value
Cc1nn(C(C)C)c(C)c1CN1CCC(C(=O)Nc2cccc(-c3cccc(F)c3)c2)CC1 | JFH-1 | Huh7 | PCR |  | 5 µM | ≥40%
COc1cc(/C=C/C(=O)CC(=O)/C=C/c2ccc(O)c(OC)c2)ccc1O |  | Huh7/Rep-Feo cells | luciferase / reporter gene |  | 10 µM | 40–60%
COc1nc(N)nc2c1ncn2[C@@H]1O[C@H](COP(=O)(N[C@@H](C)C(=O)OC(C)C)Oc2ccccc2)[C@@H](O)[C@@]1(C)F | Con1 | HepG2 | luciferase |  | 0.0085 µM | 90%
COc1ccc(CN2CCC(C(=O)Nc3ccc(Oc4ccccc4F)cc3)CC2)c(O)c1 | JFH-1 | Huh7 | PCR |  | 5 µM | ≥70%
CC1(C)CC[C@@]2(C(=O)NCc3cn(CCOCCOCCOCCn4cc(CNC(=O)[C@]56CCC(C)(C)CC5C5=CCC7[C@@]8(C)CC[C@H](O)C(C)(C)C8CC[C@@]7(C)[C@]5(C)C[C@H]6O)nn4)nn3)C(C1)C1=CCC3[C@@]4(C)CC[C@H](O)C(C)(C)C4CC[C@@]3(C)[C@]1(C)C[C@H]2O |  | Huh7 | luciferase / entry |  | 1 µM | 84.1%
CCC(NC(=O)[C@@H]1[C@H]2CC=C[C@H]2CN1C(=O)[C@@H](NC(=O)[C@@H](NC(=O)c1cnccn1)C(C)C)C(C)C)C(=O)C(=O)N[C@@H](Cc1ccccc1)C(=O)O |  |  |  |  | 25 µM | 0%
CC1(C)CC[C@]2(C(=O)O)[C@H](O)C[C@]3(C)C(=CC[C@@H]4[C@@]5(C)CC[C@H](O)C(C)(C)[C@@H]5CC[C@]43C)[C@@H]2C1 |  | Huh7 | luciferase / entry | pseudotyped | 1 µM | 7.2%
Cc1cc(Cn2cc(CNC(=O)[C@]34CCC(C)(C)CC3C3=CCC5[C@@]6(C)CC[C@H](O)C(C)(C)C6CC[C@@]5(C)[C@]3(C)C[C@H]4O)nn2)c(C)cc1Cn1cc(CNC(=O)[C@]23CCC(C)(C)CC2C2=CCC4[C@@]5(C)CC[C@H](O)C(C)(C)C5CC[C@@]4(C)[C@]2(C)C[C@H]3O)nn1 |  | Huh7 | luciferase / entry |  | 1 µM | 72.2%
CC1(C)CC[C@]2(C(=O)O)CC[C@]3(C)C(=CC[C@@H]4[C@@]5(C)CC[C@H](O)C(C)(C)[C@@H]5CC[C@]43C)[C@@H]2C1 |  | Huh7 | luciferase / entry | pseudotyped | 5 µM | 23.6%
C[C@@H]1[C@H]2[C@H](O)OC=C(C(=O)O)[C@H]2C[C@@H]1O |  |  | entry |  | 20 µg/mL | 52.5%
O=C(N[C@@H](C(=O)N1CCC[C@H]1C(=O)Nc1nc(-c2ccccc2)cs1)c1ccccc1)C1CC1 | genotype 2a infectious HCV | JFH1 | luciferase |  | 0.5738 µM | 90%
COC(=O)/C=C1\S/C(=N/N=C/c2ccc(OCc3ccccc3)cc2)NC1=O | 1b Con1 (replicon) | Huh 5-2 | luciferase / luminescence |  | 50 µM | 81.5%
C[C@]1(OC(=O)/C=C/c2ccccc2)C[C@@H](O)[C@]2(O)C=CO[C@@H](O)[C@@H]21 |  |  | entry |  | 20 µg/mL | 17.1%
COC(=O)/C=C1\S/C(=N/N=C/C2CCCCC2)NC1=O | 1b Con1 (replicon) | Huh 5-2 | luciferase / luminescence |  | 30.1 µM | 62.6%
CCn1cc(CNC(=O)[C@]23CCC(C)(C)CC2C2=CCC4[C@@]5(C)CC[C@H](O)C(C)(C)C5CC[C@@]4(C)[C@]2(C)C[C@H]3O)nn1 |  | Huh7 | luciferase / entry |  | 5 µM | 12.2%
Cc1ccc(CN2CCC(C(=O)Nc3cccc(-c4cc5ccccc5[nH]4)c3)CC2)o1 | JFH-1 | Huh7 | PCR |  | 15 µM | <40%
COC(=O)/C=C1\S/C(=N/N=C/c2cc(OC)c(O)c(OC)c2)NC1=O | 1b Con1 (replicon) | Huh 5-2 | luciferase / luminescence |  | 31.4 µM | 54.1%
COC(=O)C1=CO[C@@H](O[C@@H]2O[C@H](CO)[C@@H](O)[C@H](O)[C@H]2O)[C@H]2[C@@H]1C(=O)C[C@@H]2C |  |  | entry |  | 20 µg/mL | 0%
CC1(C)CC[C@@]2(C(=O)NCc3cn(Cc4ccccc4)nn3)C(C1)C1=CCC3[C@@]4(C)CC[C@H](O)C(C)(C)C4CC[C@@]3(C)[C@]1(C)C[C@H]2O |  | Huh7 | luciferase / entry |  | 5 µM | 2.7%
COC(=O)/C=C1\S/C(=N/N=C/c2ccc(OC)cc2)NC1=O | 1b Con1 (replicon) | Huh 5-2 | luciferase / luminescence |  | 31.7 µM | 64.9%
CC1(C)CC[C@@]2(C(=O)NCc3cn(CCc4ccc(CCn5cc(CNC(=O)[C@]67CCC(C)(C)CC6C6=CCC8[C@@]9(C)CC[C@H](O)C(C)(C)C9CC[C@@]8(C)[C@]6(C)C[C@H]7O)nn5)cc4)nn3)C(C1)C1=CCC3[C@@]4(C)CC[C@H](O)C(C)(C)C4CC[C@@]3(C)[C@]1(C)C[C@H]2O |  | Huh7 | luciferase / entry |  | 5 µM | 81.1%
Cn1c(=O)c2c(ncn2C)n(C)c1=O | J6/JFH | Huh7.5 | luciferase / replicon |  | 2000 µM | 79.3%
CC1(C)CC[C@@]2(C(=O)NCCCCCCCCCCCCNC(=O)[C@]34CCC(C)(C)CC3C3=CCC5[C@@]6(C)CC[C@H](O)C(C)(C)C6CC[C@@]5(C)[C@]3(C)C[C@H]4O)C(C1)C1=CCC3[C@@]4(C)CC[C@H](O)C(C)(C)C4CC[C@@]3(C)[C@]1(C)C[C@H]2O |  | Huh7 | luciferase / entry |  | 5 µM | 65.1%
CCCCc1ncc(-c2ccc(CN3CCC(C(=O)Nc4cccc(-c5cccc(F)c5)c4)CC3)cc2)[nH]1 | JFH-1 | Huh7 | PCR |  | 5 µM | ≥40%
CC1(C)CC[C@@]2(C(=O)NCc3cn(-c4ccc(-n5cc(CNC(=O)[C@]67CCC(C)(C)CC6C6=CCC8[C@@]9(C)CC[C@H](O)C(C)(C)C9CC[C@@]8(C)[C@]6(C)C[C@H]7O)nn5)cc4)nn3)C(C1)C1=CCC3[C@@]4(C)CC[C@H](O)C(C)(C)C4CC[C@@]3(C)[C@]1(C)C[C@H]2O |  | Huh7 | luciferase / entry |  | 5 µM | 78.1%
O=C1N/C(=N\c2nnc(-c3ccc(Cl)cc3)s2)S/C1=C\c1c(F)cccc1Cl |  | Huh7/Rep-Feo1b | MTS |  | 100 µM | 0%
COC(=O)C1=CO[C@@H](OC2O[C@H](CO)[C@@H](O)[C@H](O)[C@H]2O)[C@H]2[C@@H]1[C@H](O)[C@H](O)[C@]2(C)O |  |  | entry |  | 20 µg/mL | 0%
CC1(C)CC[C@@]2(C(=O)NCCCCCCNC(=O)[C@]34CCC(C)(C)CC3C3=CCC5[C@@]6(C)CC[C@H](O)C(C)(C)C6CC[C@@]5(C)[C@]3(C)C[C@H]4O)C(C1)C1=CCC3[C@@]4(C)CC[C@H](O)C(C)(C)C4CC[C@@]3(C)[C@]1(C)C[C@H]2O |  | Huh7 | luciferase / entry |  | 5 µM | 72.2%

Repeating the final 2 entries:

smiles,strain or isolate,cell line,method,setting,dose,value
COC(=O)C1=CO[C@@H](OC2O[C@H](CO)[C@@H](O)[C@H](O)[C@H]2O)[C@H]2[C@@H]1[C@H](O)[C@H](O)[C@]2(C)O,,,entry,,20 µg/mL,0%
CC1(C)CC[C@@]2(C(=O)NCCCCCCNC(=O)[C@]34CCC(C)(C)CC3C3=CCC5[C@@]6(C)CC[C@H](O)C(C)(C)C6CC[C@@]5(C)[C@]3(C)C[C@H]4O)C(C1)C1=CCC3[C@@]4(C)CC[C@H](O)C(C)(C)C4CC[C@@]3(C)[C@]1(C)C[C@H]2O,,Huh7,luciferase / entry,,5 µM,72.2%